Measured values from several laboratories, pooled; numbers as filed in NIAID ChemDB.

All rows: growth or infection tests; species: HIV-1; cells: MT-4; read-out: EC50

Rows are shuffled and stem from different studies. ECn is the concentration giving n% inhibition of infection, replication or growth. Blank or dashed fields: not listed here.

COC(=O)N[C@H](C(=O)N[C@@H](Cc1ccccc1)[C@@H](O)CN(Cc1ccc(-c2ccccn2)cc1)NC(=O)[C@@H](NC(=O)OC)C(C)(C)C)C(C)(C)C ; strain: NL4-3 ; changes: L10I I15V K20R L24I V32I M36I M46I L63P K70Q V82A I84V L89M ; read by: p24 / luminescence ; result: >1 µM
Fc1cccc(F)c1Cn1c(-c2c(F)cccc2F)nc2c(Br)cccc21 ; changes: RT-V108I ; read by: cytopathic effect / MTT ; result: 3.2 µM
Cc1cn([C@H]2C[C@H](N=[N+]=[N-])[C@@H](CO)O2)c(=O)[nH]c1=O ; strain: HXB2D (RT-K65R) ; changes: RT-K65R ; read by: p24 ; result: 0.011 µM
Cc1cn([C@H]2C[C@H](N=[N+]=[N-])[C@@H](CO)O2)c(=O)[nH]c1=O ; strain: NL4-3 ; changes: AMD3100-resistant ; read by: cytopathic effect / MTT ; result: 0.005 µg/mL
Nc1cccc2c1nc(-c1c(F)cccc1F)n2Cc1c(F)cccc1F ; changes: RT-L74V ; read by: cytopathic effect / MTT ; result: 0.3 µM
CCN[C@H]1CO[C@@H]2OCC[C@H](OC(=O)N[C@@H](Cc3ccccc3)[C@H](O)CN(CC(C)C)S(=O)(=O)c3ccc4nc(NC5CC5)sc4c3)[C@@H]21 ; strain: NL4-3 ; changes: L10F L33I M36I M46I I54V K55R I62V L63P A71V G73S V82T ; read by: p24 / luminescence ; result: 0.0038 µM
CC1CCCCN1CCCNCc1ccc(CC(=O)NCCCN2CCOCC2)cc1 ; read by: MTT ; result: 6.72 µM
Cc1c(Sc2ccccc2)n(COCCO)c(=O)[nH]c1=O ; strain: IIIB ; read by: cytopathic effect / MTT ; result: 7 µM
Cc1cn([C@H]2C[C@H](N=[N+]=[N-])[C@@H](COC(=O)CCC(=O)OC[C@H]3O[C@@H]4O[C@H]5[C@H](O)[C@@H](O)[C@@H](O[C@H]6[C@H](O)[C@@H](O)[C@@H](O[C@H]7[C@H](O)[C@@H](O)[C@@H](O[C@H]8[C@H](O)[C@@H](O)[C@@H](O[C@H]9[C@H](O)[C@@H](O)[C@@H](O[C@H]%10[C@H](O)[C@@H](O)[C@@H](O[C@H]3[C@H](O)[C@H]4O)O[C@@H]%10CO)O[C@@H]9CO)O[C@@H]8CO)O[C@@H]7CO)O[C@@H]6CO)O[C@@H]5CO)O2)c(=O)[nH]c1=O ; strain: IIIB ; read by: cytopathic effect / MTT ; result: 0.0452 µg/mL
Cc1cn([C@H]2C[C@H](N=[N+]=[N-])[C@@H](CO)O2)c(=O)[nH]c1=O ; strain: IIIB ; read by: cytopathic effect / trypan blue ; result: 0.003 µM
COc1ccc(S(=O)(=O)O)cc1N=Nc1c(S(=O)(=O)O)cc2cc(Nc3nc(Nc4ccccc4)nc(Nc4cc(C)c(N=Nc5cc(S(=O)(=O)O)cc6cc(S(=O)(=O)O)cc(O)c56)cc4OC)n3)ccc2c1O ; strain: NL4-3 ; read by: cytopathic effect / MTT ; result: 0.6 µg/mL
CNC(=O)[C@@H](NC(=O)[C@H](OCc1ccc(F)cc1)[C@H](O)[C@@H](O)[C@@H](OCc1ccc(F)cc1)C(=O)N[C@H](C(=O)NC)C(C)C)C(C)C ; read by: cytopathic effect / XTT ; result: 5 µM
O=C(Cc1ccc(CNCCCN2CCCC2)cc1)NCCCN1CCOCC1 ; read by: MTT ; result: >62.1 µM
CC(C)CN(C[C@@H](O)[C@H](Cc1ccccc1)NC(=O)O[C@H]1CCOC1)S(=O)(=O)c1ccc(N)cc1 ; strain: NL4-3 ; changes: L10F M46I I54V V82A ; read by: p24 / luminescence ; result: >1 µM
CC(=O)Nc1cccc2c1nc(-c1c(F)cccc1F)n2Cc1c(F)cccc1F ; changes: RT-K101E ; read by: cytopathic effect / MTT ; result: >20 µM
Cc1cn([C@H]2C[C@H](F)[C@@H](CO)O2)c(=O)[nH]c1=O ; strain: IIIB ; read by: cytopathic effect / trypan blue ; result: 0.001 µM
CN1CCN(CCCNCc2ccc(CNCCCN3CCN(C)CC3)cc2)CC1 ; read by: MTT ; result: 22.8 µM
O=C(NC1c2ccccc2CC1O)[C@H](OCc1ccccc1)[C@H](O)[C@@H](O)[C@@H](OCc1ccccc1)C(=O)N[C@H]1c2ccccc2CC1O ; read by: cytopathic effect / XTT ; result: 0.05 µM
CC(C)c1nc(CN(C)C(=O)N[C@H](C(=O)N[C@@H](Cc2ccccc2)C[C@H](O)[C@H](Cc2ccccc2)NC(=O)OCc2cncs2)C(C)C)cs1 ; strain: NL4-3 ; read by: cytopathic effect / MTT ; result: 0.067 µg/mL
Fc1cccc(F)c1[C@@H]1SCc2nc3ccccc3n21 ; strain: NDK ; read by: cytopathic effect / MTT ; result: 0.2 µg/mL
O=C(NC1CCc2ccccc21)[C@H](OCc1cccc(F)c1)[C@H](O)[C@@H](O)[C@@H](OCc1cccc(F)c1)C(=O)N[C@H]1CCc2ccccc21 ; read by: cytopathic effect / XTT ; result: 0.5 µM
Cc1cn([C@H]2C[C@H](N=[N+]=[N-])[C@@H](COC(=O)CCC(=O)OC[C@H]3O[C@@H]4O[C@H]5[C@H](O)[C@@H](O)[C@@H](O[C@H]6[C@H](O)[C@@H](O)[C@@H](O[C@H]7[C@H](O)[C@@H](O)[C@@H](O[C@H]8[C@H](O)[C@@H](O)[C@@H](O[C@H]9[C@H](O)[C@@H](O)[C@@H](O[C@H]3[C@H](O)[C@H]4O)O[C@@H]9CO)O[C@@H]8CO)O[C@@H]7CO)O[C@@H]6CO)O[C@@H]5CO)O2)c(=O)[nH]c1=O ; strain: IIIB ; read by: cytopathic effect / MTT ; result: 0.004 µg/mL
CNC(=O)[C@@H](NC(=O)[C@H](OCc1cccc(F)c1)[C@H](O)[C@@H](O)[C@@H](OCc1cccc(F)c1)C(=O)N[C@H](C(=O)NC)C(C)C)C(C)C ; read by: cytopathic effect / XTT ; result: 0.8 µM
CCc1cc(NCc2nc3c(Cl)ccc(Cl)c3o2)c(=O)[nH]c1C ; strain: NL4-3 ; changes: RT-K10D K103N ; read by: p24 ; result: >3 µM
CCN[C@H]1CO[C@@H]2OCC[C@H](OC(=O)N[C@@H](Cc3cccc(OC)c3)[C@H](O)CN(CC(C)C)S(=O)(=O)c3ccc4nc(NC(C)C)sc4c3)[C@@H]21 ; strain: NL4-3 ; changes: L10I I15V K20R L24I V32I M36I M46I I54V I62V L63P K70Q V82A L88M ; read by: p24 / luminescence ; result: 0.0018 µM
CN(C)c1cccc2c1nc(-c1c(F)cccc1F)n2Cc1c(F)cccc1F ; changes: RT-V108I ; read by: cytopathic effect / MTT ; result: 3.2 µM
CN[C@H]1CO[C@@H]2OCC[C@H](OC(=O)N[C@@H](Cc3ccccc3)[C@H](O)CN(CC(C)C)S(=O)(=O)c3ccc4nc(NC5CC5)sc4c3)[C@@H]21 ; strain: NL4-3 ; changes: L10F M46I I54V V82A ; read by: p24 / luminescence ; result: 0.0059 µM
CNC(=O)C(NC(=O)[C@H](OCc1ccc(-c2cccc([N+](=O)[O-])c2)cc1)C(O)C(O)[C@@H](OCc1ccc(-c2cccc([N+](=O)[O-])c2)cc1)C(=O)NC(C(=O)NC)C(C)C)C(C)C ; read by: cytopathic effect / XTT ; result: 0.4 µM
CC(=O)Oc1ccc(/C=C/C(=O)O[C@@H](C(=O)O)[C@@H](OC(=O)/C=C/c2ccc(OC(C)=O)c(OC(C)=O)c2)C(=O)O)cc1OC(C)=O ; strain: IIIB ; result: 4 µM
c1cc(CCNCCCN2CCOCC2)ccc1CCNCCCN1CCOCC1 ; read by: MTT ; result: 49.52 µM

4 of the rows above, restated:

| compound | strain | changes | read by | result |
|---|---|---|---|---|
| CCN[C@H]1CO[C@@H]2OCC[C@H](OC(=O)N[C@@H](Cc3ccccc3)[C@H](O)CN(CC(C)C)S(=O)(=O)c3ccc4nc(NC5CC5)sc4c3)[C@@H]21 | NL4-3 | L10F L33I M36I M46I I54V K55R I62V L63P A71V G73S V82T | p24 / luminescence | 0.0038 µM |
| CNC(=O)[C@@H](NC(=O)[C@H](OCc1ccc(F)cc1)[C@H](O)[C@@H](O)[C@@H](OCc1ccc(F)cc1)C(=O)N[C@H](C(=O)NC)C(C)C)C(C)C |  |  | cytopathic effect / XTT | 5 µM |
| O=C(Cc1ccc(CNCCCN2CCCC2)cc1)NCCCN1CCOCC1 |  |  | MTT | >62.1 µM |
| Fc1cccc(F)c1Cn1c(-c2c(F)cccc2F)nc2c(Br)cccc21 |  | RT-V108I | cytopathic effect / MTT | 3.2 µM |